Data taken from patent publication US6863895B2, “Mycobacterial sulfation pathway proteins and methods of use thereof” (priority 2001, dated 2005).

By UniProt entry, the sequences of proteins in these tests, tags left out. Residues count along the entry.
UniProt P9WNM5, 442-614 limits assumed: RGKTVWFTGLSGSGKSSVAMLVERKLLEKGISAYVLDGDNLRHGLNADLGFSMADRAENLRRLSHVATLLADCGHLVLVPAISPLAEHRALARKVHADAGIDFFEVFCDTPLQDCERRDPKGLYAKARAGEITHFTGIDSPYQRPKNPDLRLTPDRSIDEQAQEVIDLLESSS

Target: M. tuberculosis CysC (APS kinase) (Mycobacterium tuberculosis, UniProt P9WNM5)
Assay: Coupled in vitro assay of M. tuberculosis CysC (APS kinase)
Settings: read-out: apparent Km, for APS

SMILES: Nc1ncnc2c1ncn2[C@@H]1O[C@H](COP(=O)(O)OS(=O)(=O)O)[C@@H](O)[C@H]1O [APS, adenylyl phosphosulfate]
- Km (in the presence of 75 mM sulfate): 1700 nM
- Km (saturating ATP (5 mM)): 640 nM

Read-outs that look alike come from different tables or passages of the source.
